The experiment has as its system M. tuberculosis H37Rv. The experiment in a line: High-dose aerosol mouse infection model, drug combinations. In kind it is in vivo, BALB/c mice. The conditions noted are these: experiment 1; bedaquiline alone for 8 weeks.

For `COc1nc2ccc(Br)cc2cc1[C@@H](c1ccccc1)[C@@](O)(CCN(C)C)c1cccc2ccccc12`, the “emergence of bedaquiline resistance” value is “two of the four mice”.
